Experimental data: article PMC5286506, “M48U1 and Tenofovir combination synergistically inhibits HIV infection in activated PBMCs and human cervicovaginal histocultures” (Scientific Reports, 2017)
Like-named read-outs stand apart in the source and are kept apart here.

Columns and labels:
[1] = system: gp120; details: higher than gp120 binding soluble CD4; cited from earlier work
[2] = system: X4-tropic HIV-1IIIb; experiment: HIV-1IIIb infection of activated PBMCs, HIV-1 gag p24 ELISA on day 7; assay type: cell-based; details: 1 μM M48U1 or 5 μM tenofovir in 0.25% HEC
Description: (§1) Mock-infected PBMCs were used as the negative control.
(§2) The antiviral activity of each drug, M48U1 and tenofovir, formulated in 0.25% HEC hydrogel was determined in an activated PBMC model. […] This mixture was added to PBMCs activated with IL-2 and PHA for a two-hour incubation at 37 °C. To evaluate the antiviral effect of M48U1, the level of HIV-1 gag p24 protein in the culture supernatant was determined at seven days post-infection using an ELISA. A significant decrease (p < 0.05; Mann Whitney test) in the HIV-1 p24 level was found (Fig. 1).
(§3) Figure 1 M48U1 and tenofovir formulated in 0.25% HEC each inhibited the replication of both R5-tropic HIV-1BaL and X4-tropic HIV-1IIIb in activated PBMCs. […] After this incubation, these solutions were used to resuspend activated PBMCs for 2 hours at 37 °C. HIV-1 replication was monitored by a HIV-1 p24 ELISA assay on the cell culture supernatants performed on day 7 post-infection. […] Three experiments in triplicate were performed.

[3] = system: EpiVaginal tissue model; experiment: LDH release in the EpiVaginal tissue model; details: 20 μM tenofovir and/or 6.7 μM M48U1 in 0.25% HEC
[4] = system: HIV-1BaL; experiment: HIV-1BaL-infected cervicovaginal histoculture (EpiVaginal), proviral DNA qPCR; assay type: cell-based; details: 0.67 μM M48U1, 2 μM tenofovir or both in 0.25% HEC; day 4 post-infection; vs HEC-treated infected samples
[5] = system: R5-tropic HIV-1BaL; experiment: HIV-1BaL infection of activated PBMCs, HIV-1 gag p24 ELISA on day 7; assay type: cell-based; details: 1 μM M48U1 or 5 μM tenofovir in 0.25% HEC
Description: as §1, §2, §3

[6] = system: SHIV-1_162P3; set-up: method as in PMID 23236282; details: M48U1 vaginal gel, Cynomolgus macaques; cited from earlier work
[7] = system: EpiVaginal tissue model; details: 20 μM tenofovir and/or 6.7 μM M48U1 in 0.25% HEC
[8] = system: HIV-1BaL, HIV-1IIIb, HIV-1ADA, HIV-1RU132, HIV-1ARV-2, HIV-1CBL4; experiment: Laboratory HIV-1 strains in activated PBMCs, p24 ELISA on day 7; assay type: cell-based; details: 1 μM M48U1 or 5 μM tenofovir in 0.25% HEC; p < 0.05
Description: as §1
(§4) Figure 2 M48U1 in 0.25% HEC and tenofovir in 0.25% HEC each inhibited several laboratory strains and patient-derived HIV-1 isolates. Treatment with either 1 μM M48U1/0.25% (A) or 5 μM tenofovir/0.25% HEC (B) inhibited the replication of all tested laboratory and patient-derived strains. The HIV-1 strain tropism was determined with a sequencing analysis for the patient-derived strains. The combination of the two HIV-1 drugs inhibited HIV-1 replication independent of the HIV-1 strain tropism. HIV-1 replication was monitored by the HIV-1 p24 ELISA assay using cell culture supernatants obtained on day 7 post-infection. […] Three experiments in triplicate were performed. Analysis of antiretroviral activity of 1 μM M48U1 in 0.25% HEC (C) or 5 μM tenofovir in 0.25% HEC (D) performed in TZM-bl cells infected with pREJO.c/2864 and pTHRO.c/2626 T/F IMCs. […] Each sample was performed in triplicate and was repeated in three independent experiments.

[9] = in vitro; details: human
[10] = system: pREJO.c/2864 T/F IMC; experiment: T/F IMC infection of TZM-bl cells, luciferase readout; assay type: cell-based, HIV-1; details: pREJO.c/2864, TZM-bl cells
Description: (§5) To analyze the inhibition of infection with HIV-1 T/F strains, a final concentration of 1 μM or 6.7 μM of M48U1 and 5 μM or 20 μM of tenofovir both in 0.25% HEC, were plated in triplicate in a 96-well flat bottom plate in 10% D-MEM containing 20 TCID50 of each T/F IMC (150 μL/well), and incubated for 1 hour at 37 °C. TZM-bl cells (1 × 10^4/well in a 100 μL volume) in 10% D-MEM growth medium containing DEAE-dextran (Sigma) at a final concentration of 7.5 μg/mL were then added to the plate. Assay controls included replicate wells of TZM-bl cells alone in HEC 0.25% (cell control) and TZM-bl cells with virus (virus control). Following 72 hours of incubation at 37 °C, 150 μL of culture medium were removed from each well and replaced with 100 μL of Bright-Glo luciferase reagent (Promega). After 2-minutes of incubation, 150 μL of the cell lysate were transferred to a 96-well white solid plate and luminescence was measured using a Victor Light 2030 luminometer (Perkin Elmer). […]
(§6) Figure 2 M48U1 in 0.25% HEC and tenofovir in 0.25% HEC each inhibited several laboratory strains and patient-derived HIV-1 isolates. […] The HIV-1 strain tropism was determined with a sequencing analysis for the patient-derived strains. […] HIV-1 replication was monitored by the HIV-1 p24 ELISA assay using cell culture supernatants obtained on day 7 post-infection. […]

[11] = system: HIV-1 subtype B and C isolates (HIV-1AMBR5N, HIV-1FBR5N, HIV-1SLR5N, HIV-1ARR5X4, HIV-1CSBX4); experiment: Patient-derived HIV-1 isolates in activated PBMCs, p24 ELISA on day 7; assay type: cell-based; details: 1 μM M48U1 (five isolates) or 5 μM tenofovir (three isolates from naïve patients) in 0.25% HEC; p < 0.05
Description: as §1, §4

[12] = set-up: method as in PMID 23236282, PMID 25645853; details: cited from earlier work
[13] = system: pTHRO.c/2626 T/F IMC; experiment: T/F IMC infection of TZM-bl cells, luciferase readout; assay type: cell-based, HIV-1; details: pTHRO.c/2626, TZM-bl cells
Description: as §5, §6

[14] = set-up: method as in PMID 23236282, PMID 25645853; details: cited from earlier work; remark: listed apart in the source
[15] = MTT tissue viability in the EpiVaginal tissue model; details: human
[16] = 1 μM M48U1 or 5 μM tenofovir in 0.25% HEC
[17] = 6.7 μM M48U1 or 20 μM tenofovir in 0.25% HEC

SMILES: CC(C)C[C@@H]1NC(=O)CNC(=O)[C@H](CC(C)C)NC(=O)[C@H](CO)NC(=O)[C@H](CCCCN)NC(=O)[C@@H]2CSSC[C@@H](C(=O)N[C@H](C(N)=O)C(C)C)NC(=O)[C@H](C)NC(=O)[C@@H]3CSSC[C@H](NC(=O)[C@H](Cc4ccccc4)NC(=O)[C@H](Cc4cnc[nH]4)NC(=O)[C@H](CC(C)C)NC(=O)[C@H](CC(N)=O)NC(=O)CCSSC[C@H](NC(=O)[C@H](CCCNC(=N)N)NC(=O)CNC(=O)[C@H](CC(C)C)NC1=O)C(=O)N[C@@H](C)C(=O)N1CCC[C@@H]1C(=O)N[C@@H]([C@@H](C)O)C(=O)N[C@@H](Cc1ccc(OCC4CCCCC4)cc1)C(=O)N3)C(=O)N[C@@H](CCC(N)=O)C(=O)N[C@@H](CC(C)C)C(=O)N[C@@H](CCCNC(=N)N)C(=O)N2 [M48U1]
- affinity for gp120 relative to soluble CD4 (titer binding) [1]: 100 fold
- inhibition of HIV-1IIIb replication [2]: over 90%
- LDH release (Abs) ([3]; 1 hour): 0.222 ± 0.05 Abs
- LDH release (Abs) ([3]; 4 hours): 0.364 ± 0.01 Abs
- LDH release (Abs) ([3]; 18 hours): 0.996 ± 0.2 Abs
- LDH release (Abs) ([3]; 96 hours): 1.544 ± 0.15 Abs
- decrease in the amount of proviral HIV-1 DNA (folds of inhibition, mean) [4]: 7 fold
- inhibition of HIV-1BaL replication [5]: over 90%
- SHIV-1_162P3 infection [6]: prevented
- IL-1α Release ([7]; 1 hour): 8.0 ± 1.0 pg/mL
- IL-1α Release ([7]; 4 hours): 10.5 ± 1.1 pg/mL
- IL-1α Release ([7]; 18 hours): 33.8 ± 5.4 pg/mL
- IL-1α Release ([7]; 96 hours): 62.2 ± 9.3 pg/mL
- replication of laboratory HIV-1 strains (p24 in cell supernatant) [8]: suppressed the replication of all HIV-1 strains tested
- CC50 at 7 day [9]: > 10 µM
- reduction in viral replication [10, 16]: 96.7%
- reduction in viral replication [10, 17]: 96.6%
- infection of PBMCs with patient-derived HIV-1 subtype B and C isolates [11]: prevented infection of PBMCs with all HIV-1 subtype B and C isolates
- solubility at acidic pH [12]: very soluble
- reduction in viral replication [13, 16]: 95%
- reduction in viral replication [13, 17]: 95%
- stability in vaginal fluids [14]: stable
- viability at 1 hour, 6.7 μM [15]: 98%
- viability at 4 hours, 6.7 μM [15]: 98%
- viability at 18 hours, 6.7 μM [15]: 89%
- viability at 96 hours, 6.7 μM [15]: 91%
